PubChem BioAssay AID504761 | Drosophila RNAi Screening Center | 2011
The screen tested about 22,000 reagents; below is a random part of those with a known target gene and a result. In the full data, 116 (0.52%) got an active call. 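Calls depend on retest data that are not deposited; infection was ranked per plate without normalising between plates; the unit of the infection score is not given.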 Raw values are not corrected between plates. Reagents against one gene are numbered here. Not given: the amount of reagent, the time to read-out.

- Purpose: 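Fly genes whose silencing reduces dengue virus type 2 infection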 (primary screen)
- Cell system: D.Mel-2 cells from Drosophila
- Knock-down reagent: long dsRNA against Drosophila genes
- Conditions: infection with dengue virus type 2; dose and infection time not stated
- Read-out: 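Cells stained for dengue envelope protein and imaged; percent of infected cells per well on duplicate plates, ranked by infection, with stained nuclei counted for cell number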
- Reading the numbers: infection score: higher = more virus-infected cells; cell count: higher = more cells in the well
- Hit rule: 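Very low infection ranking in both replicate wells (chance probability at most 0.065), then a retest showing infection dropped 1.5-fold or more at p below 0.05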
- Meaning of the calls: active = confirmed: knock-down lowers infection; inactive = not picked or not confirmed

gene	dsRNA no.	infection score, replicate 1	infection score, replicate 2	cell count, replicate 1	cell count, replicate 2	Outcome
CG14410	1	6.04	3.89	6454	6633	inactive
stops	1	5.87	9.62	6252	6873	inactive
stops	2	1.73	6.26	6018	6105	inactive
stops	3	5.09	11.8	6509	5376	inactive
CG14835	1	5.03	2.91	6306	6216	inactive
HDAC1	1	3.76	8.76	4786	4374	inactive
CG5897	1	1.48	3.87	6221	6540	inactive
Socs16D	1	2.88	9.5	6147	6923	inactive
Socs16D	2	9.42	8.98	5660	5767	inactive
Spn28Da	1	4.92	5.77	5669	6687	inactive
CG30284	1	6.74	11.1	6438	5793	inactive
CG8746	1	13.9	19	4359	5697	inactive
CG11162	1	9.74	9.48	6353	6411	inactive
CG11162	2	15.3	0.64	3885	6696	inactive
eIF2Balpha	1	4.97	1.97	6317	6584	inactive
side-II	1	8.37	3.77	5126	6921	inactive
side-II	2	5.99	3.3	6442	6578	inactive
side-II	3	3.34	1.53	5986	6648	inactive
side-II	4	1.5	2.9	6197	6510	inactive
side-II	5	1.65	2.7	6498	6156	inactive
levy	1	7.71	7.51	6524	6735	inactive
CG11560	1	14.8	16.7	5694	5539	inactive
CG11560	2	9.52	15	5675	6280	inactive
AANATL4	1	2.95	4.3	6618	5999	inactive
CG13032	1	2.6	2.29	6382	6649	inactive
indra	1	8.68	12.7	5957	5905	inactive
indra	2	3.88	7	6239	6426	inactive
CG8568	1	3.76	7.49	6194	7340	inactive
CG8568	2	3.42	1.13	6224	5925	inactive
betaTub85D	1	4.68	2.29	3909	4060	inactive
betaTub85D	2	13.3	9.39	6339	6612	inactive
CG5623	1	5.3	22	6320	4047	inactive
CG31288	1	8.93	1.69	5498	7060	inactive
CG31288	2	14.6	26.5	6444	5116	inactive
CG15525	1	11.3	4.49	2703	7147	inactive
CG15525	2	2.14	7.29	6581	6103	inactive
Gr33a	1	3.49	1.03	6730	6514	inactive
Spag1	1	3.85	11.8	6312	5441	inactive
Mst87F	1	1.79	14.5	6100	5053	inactive
Mst87F	2	11.2	8.39	5814	6320	inactive
png	1	8.85	6.28	7030	5857	inactive
png	2	9.87	4.41	6840	6833	inactive
Git	1	28.1	20.2	5552	6016	inactive
Git	2	1.62	6.11	1355	2831	inactive
GluRS-m	1	2.15	4.2	6292	6212	inactive
GluRS-m	2	7.41	3.29	6167	6322	inactive
PpD6	1	2.15	5.02	6560	6336	inactive
PpD6	2	1.27	4.68	6751	6772	inactive
Cdc7	1	0.77	0.97	6359	6477	inactive
Cdc7	2	9.28	5.43	6129	6959	inactive
Coq3	1	16.7	8.84	6284	6075	inactive
COX6CL	1	2.85	1.61	5799	5829	inactive
bchs	1	0.66	4.68	6393	6050	inactive
dsb	1	2.86	2.34	6323	6490	inactive
Phf5a	1	4.34	0.9	6244	6658	inactive
Caf1-180	1	1.53	1.07	5754	6063	inactive
Caf1-180	2	2.13	6.1	5076	5592	inactive
Isha	1	6.24	30.5	4741	3789	inactive

Reprinted from the entries so far, 8 entries:
gene	dsRNA no.	infection score, replicate 1	infection score, replicate 2	cell count, replicate 1	cell count, replicate 2	Outcome
Socs16D	1	2.88	9.5	6147	6923	inactive
Socs16D	2	9.42	8.98	5660	5767	inactive
Spn28Da	1	4.92	5.77	5669	6687	inactive
CG30284	1	6.74	11.1	6438	5793	inactive
CG8746	1	13.9	19	4359	5697	inactive
CG11162	1	9.74	9.48	6353	6411	inactive
CG11162	2	15.3	0.64	3885	6696	inactive
eIF2Balpha	1	4.97	1.97	6317	6584	inactive
